According to article PMC10855908 (International Journal of Molecular Sciences, 2024):
In brackets after ≈: the same amount, converted by molar mass.

What was measured:
P. aeruginosa ATCC27855 = assay: Agar well diffusion; format: cell-based, Pseudomonas aeruginosa; settings: Mueller–Hinton soft agar, 80 μL of enterocin at 200 μg/mL, 24 h 37 °C, dash = not active
S. suis C2058 = assay: Agar well diffusion; format: cell-based, Streptococcus suis; settings: Mueller–Hinton soft agar, 80 μL of enterocin at 200 μg/mL, 24 h 37 °C, dash = not active
C. perfringens MLG5806 = assay: MIC microtitration assay; format: cell-based, Clostridium perfringens
C. perfringens MLG6907 = assay: MIC microtitration assay; format: cell-based, Clostridium perfringens
C. perfringens MLG2314 = assay: MIC microtitration assay; format: cell-based, Clostridium perfringens
C. perfringens MLG1819 = assay: MIC microtitration assay; format: cell-based, Clostridium perfringens
C. perfringens MLG4206 = assay: MIC microtitration assay; format: cell-based, Clostridium perfringens
C. perfringens MLG0618 = assay: MIC microtitration assay; format: cell-based, Clostridium perfringens
C. perfringens MLG7307 = assay: MIC microtitration assay; format: cell-based, Clostridium perfringens
C. perfringens MLG3406 = assay: MIC microtitration assay; format: cell-based, Clostridium perfringens
C. perfringens MLG2203 = assay: MIC microtitration assay; format: cell-based, Clostridium perfringens
C. perfringens MLG0712 = assay: MIC microtitration assay; format: cell-based, Clostridium perfringens
C. perfringens MLG5719 = assay: MIC microtitration assay; format: cell-based, Clostridium perfringens
C. perfringens MLG4201 = assay: MIC microtitration assay; format: cell-based, Clostridium perfringens
C. perfringens MLG7814 = assay: MIC microtitration assay; format: cell-based, Clostridium perfringens
C. perfringens MLG0418 = assay: MIC microtitration assay; format: cell-based, Clostridium perfringens
C. perfringens MLG1619 = assay: MIC microtitration assay; format: cell-based, Clostridium perfringens
C. perfringens MLG7009 = assay: MIC microtitration assay; format: cell-based, Clostridium perfringens
C. perfringens MLG1108 = assay: MIC microtitration assay; format: cell-based, Clostridium perfringens
C. perfringens MLG7309 = assay: MIC microtitration assay; format: cell-based, Clostridium perfringens
C. perfringens MLG3111 = assay: MIC microtitration assay; format: cell-based, Clostridium perfringens
C. perfringens MLG2919 = assay: MIC microtitration assay; format: cell-based, Clostridium perfringens
S. pyogenes ATCC19615 = assay: Agar well diffusion; format: cell-based, Streptococcus pyogenes; settings: Mueller–Hinton soft agar, 80 μL of enterocin at 200 μg/mL, 24 h 37 °C, dash = not active
E. cecorum C0009 = assay: Agar well diffusion; format: cell-based, Enterococcus cecorum; settings: Mueller–Hinton soft agar, 80 μL of enterocin at 200 μg/mL, 24 h 37 °C, dash = not active
E. faecalis ATCC29212 = assay: Agar well diffusion; format: cell-based, Enterococcus faecalis; settings: Mueller–Hinton soft agar, 80 μL of enterocin at 200 μg/mL, 24 h 37 °C, dash = not active
[1] = system: Listeria monocytogenes ATCC 1911; assay: MIC microtitration assay; format: cell-based
[2] = system: Enterococcus cecorum CECO 0009; assay: MIC microtitration assay; format: cell-based
[3] = system: Enterococcus faecalis ATCC 29212; assay: MIC microtitration assay; format: cell-based
[4] = system: Pseudomonas aeruginosa ATCC 27855; assay: MIC microtitration assay; format: cell-based
Streptococcus suis C2058 = assay: MIC microtitration assay; format: cell-based
[5] = system: Staphylococcus aureus C411 (methicillin-resistant S. aureus); assay: MIC microtitration assay; format: cell-based
[6] = system: Streptococcus pyogenes ATCC 19615; assay: MIC microtitration assay; format: cell-based
[7] = system: Staphylococcus aureus ATCC 6538; assay: MIC microtitration assay; format: cell-based
S. aureus C411 = assay: Agar well diffusion; format: cell-based, Staphylococcus aureus; settings: S. aureus C411 (methicillin-resistant); Mueller–Hinton soft agar, 80 μL of enterocin at 200 μg/mL, 24 h 37 °C; dash = not active
S. aureus ATCC6538 = assay: Agar well diffusion; format: cell-based, Staphylococcus aureus; settings: Mueller–Hinton soft agar, 80 μL of enterocin at 200 μg/mL, 24 h 37 °C, dash = not active
[8] = system: L. monocytogenes ATCC1911; assay: Agar well diffusion; format: cell-based, Listeria monocytogenes; settings: Mueller–Hinton soft agar, 80 μL of enterocin at 200 μg/mL, 24 h 37 °C, dash = not active

## CC[C@H](C)[C@H](NC(=O)[C@H](Cc1c[nH]cn1)NC(=O)[C@H](CCCCN)NC(=O)[C@H](CCCCN)NC(=O)[C@@H](NC(=O)[C@H](Cc1c[nH]c2ccccc12)NC(=O)[C@H](CCC(=O)O)NC(=O)[C@@H](NC(=O)[C@@H](NC(=O)[C@H](CCCCN)NC(=O)[C@H](CC(N)=O)NC(=O)[C@@H](NC(=O)[C@H](C)NC(=O)[C@H](Cc1c[nH]c2ccccc12)NC(=O)CNC(=O)[C@H](CCC(=O)O)NC(=O)CNC(=O)[C@@H](NC(=O)[C@H](Cc1ccccc1)NC(=O)[C@H](CCC(N)=O)NC(=O)[C@H](CCSC)NC(=O)[C@@H](NC(=O)[C@H](CCC(N)=O)NC(=O)[C@H](CCCCN)NC(=O)[C@H](Cc1ccc(O)cc1)NC(=O)[C@H](Cc1ccc(O)cc1)NC(=O)[C@H](CCCCN)NC(=O)[C@H](CCCCN)NC(=O)[C@@H](NC(=O)[C@@H](NC(=O)[C@@H]1CCCN1C(=O)[C@H](Cc1c[nH]c2ccccc12)NC(=O)CNC(=O)[C@H](Cc1ccccc1)NC(=O)[C@H](CCCCN)NC(=O)[C@H](C)NC(=O)[C@@H](NC(=O)[C@H](CC(C)C)NC(=O)[C@H](CCCCN)NC(=O)[C@H](C)NC(=O)[C@@H](NC(=O)[C@H](C)NC(=O)CNC(=O)[C@@H](N)CCSC)[C@@H](C)CC)C(C)C)[C@@H](C)CC)C(C)C)[C@@H](C)CC)[C@@H](C)CC)[C@@H](C)CC)[C@@H](C)CC)[C@@H](C)CC)[C@@H](C)CC)C(=O)O [Enterocin L50A]
P. aeruginosa ATCC27855
  Inhibition halos: 14 mm
S. suis C2058
  Inhibition halos: 15 mm
C. perfringens MLG5806
  MIC: 6.25 µg/mL (≈ 1.2 µM)
C. perfringens MLG6907
  MIC: 12.5 µg/mL (≈ 2.41 µM)
C. perfringens MLG2314
  MIC: 3.12 µg/mL (≈ 0.601 µM)
C. perfringens MLG1819
  MIC: 6.25 µg/mL (≈ 1.2 µM)
C. perfringens MLG4206
  MIC: 6.25 µg/mL (≈ 1.2 µM)
C. perfringens MLG0618
  MIC: 6.25 µg/mL (≈ 1.2 µM)
C. perfringens MLG7307
  MIC: 1.56 µg/mL (≈ 0.301 µM)
C. perfringens MLG3406
  MIC: 6.25 µg/mL (≈ 1.2 µM)
C. perfringens MLG2203
  MIC: 12.5 µg/mL (≈ 2.41 µM)
C. perfringens MLG0712
  MIC: 1.56 µg/mL (≈ 0.301 µM)
C. perfringens MLG5719
  MIC: 6.25 µg/mL (≈ 1.2 µM)
C. perfringens MLG4201
  MIC: 6.25 µg/mL (≈ 1.2 µM)
C. perfringens MLG7814
  MIC: 12.5 µg/mL (≈ 2.41 µM)
C. perfringens MLG0418
  MIC: 6.25 µg/mL (≈ 1.2 µM)
C. perfringens MLG1619
  MIC: 12.5 µg/mL (≈ 2.41 µM)
C. perfringens MLG7009
  MIC: 6.25 µg/mL (≈ 1.2 µM)
C. perfringens MLG1108
  MIC: 3.12 µg/mL (≈ 0.601 µM)
C. perfringens MLG7309
  MIC: 6.25 µg/mL (≈ 1.2 µM)
C. perfringens MLG3111
  MIC: 3.12 µg/mL (≈ 0.601 µM)
C. perfringens MLG2919
  MIC: 6.25 µg/mL (≈ 1.2 µM)
S. pyogenes ATCC19615
  Inhibition halos: 26 mm
E. cecorum C0009
  Inhibition halos: 28 mm
E. faecalis ATCC29212
  Inhibition halos: 15 mm
[1]
  MIC: <0.19 µg/mL
[2]
  MIC: 1.56 µg/mL (≈ 0.301 µM)
[3]
  MIC: 3.12 µg/mL (≈ 0.601 µM)
[4]
  MIC: 12.5 µg/mL (≈ 2.41 µM)
Streptococcus suis C2058
  MIC: 1.56 µg/mL (≈ 0.301 µM)
[5]
  MIC: 12.5 µg/mL (≈ 2.41 µM)
[6]
  MIC: 0.78 µg/mL (≈ 0.15 µM)
[7]
  MIC: 6.25 µg/mL (≈ 1.2 µM)
S. aureus C411
  Inhibition halos: 13 mm
S. aureus ATCC6538
  Inhibition halos: 15 mm
[8]
  Inhibition halos: 15 mm
